Data from paper PMC8099175, “SARS-CoV-2 M^pro inhibitors with antiviral activity in a transgenic mouse model” (Science (New York, N.y.), 2021).

Tested on: SARS-CoV-2–infected Vero E6 cells
Experiment: cell protection assay (CCK8)
Details: read-out: EC50, cell protection, MOI 0.1, 3 dpi

O=C[C@H](C[C@@H]1CCNC1=O)NC(=O)[C@H]1[C@@H]2CCC[C@H]2CN1C(=O)COc1ccc(Cl)cc1
EC50: 0.67 µM
